Compound potency records, mixed from different reports. Data source: NIAID ChemDB in PubChem.

Common to all: tests in culture; species: Hepatitis C virus; measure: EC50

Blank or dashed fields: not listed here.

smiles,strain,read by,result
CC(=O)N1c2cccc(O)c2NC2=C(C(=O)CC3(CCCCC3)C2)C1c1ccc(Cl)cc1Cl,1b,luciferase / reporter gene / replicon,8.51 µM
CN1CCN(c2cc3c(cc2F)c(=O)c(-c2noc(C(CCCCNC(=O)OC(C)(C)C)c4ccccc4)n2)cn3Cc2ccc(Cl)cc2)CC1,1b,replicon,<0.5 µM
CC(=O)c1ccc(C(=O)N2c3cccc(O)c3NC3=C(C(=O)CC(C)(C)C3)[C@@H]2c2ccc(OCc3ccccc3)cc2F)nc1,1b,luciferase / reporter gene / replicon,0.44 µM
COc1ccc(S(=O)(=O)NC(=O)c2c(-c3ccc[nH]c3=O)c3c4ccoc4ccc3n2Cc2ccc(F)cc2F)cc1,-,replicon,>1.5 µM
COc1cc2c(=O)c(-c3noc(CC4CCCCC4)n3)cn(Cc3ccc(Cl)cc3)c2cc1OC,1b,replicon,>10 µM
CCOc1nc(NCc2ccc(F)cc2F)nc2ccc(-c3ccc(C(=O)NC4CC4)cc3)nc12,-,replicon,<0.1 µM
CCCCCCCCOc1ccc(N(C(=O)OCCOCCOCCOCCOC)c2nc(-c3cccnc3)c(F)s2)cc1C(F)(F)F,-,-,<1 µM
CC(=O)N1c2cccc(O)c2NC2=C(C(=O)CC(C)(C)C2)C1c1ccc(OCc2ccccc2Cl)cc1Cl,1b,luciferase / reporter gene / replicon,2.12 µM
CCCCCN(C)c1ccc(N(C(N)=O)c2nc(-c3ccc(C)nc3)cs2)cc1C(F)(F)F,-,-,<1 µM
CC1(C)CC(=O)C2=C(C1)Nc1c(O)cccc1N(C(=O)c1cnccn1)[C@H]2c1ccc(OCc2ccccc2)cc1F,1b,luciferase / reporter gene / replicon,0.31 µM
NC(=O)COc1ccc2c(c1)S(=O)(=O)N=C(c1c(O)c3cc(F)ccc3n(CCC3CC3)c1=O)N2,1b 5903,replicon,0.049 µM
Cc1ccc(-c2csc(N(C(N)=O)c3ccc(NCC(C)C)c(C(F)(F)F)c3)n2)cn1,-,-,<1 µM
CN1CCN(c2cc3c(cc2F)c(=O)c(-c2noc(C4(c5ccccc5)CC4)n2)cn3C2(c3ccc(C(F)(F)F)cc3)CC2)CC1,1b,replicon,<2 µM
CN(CCS(C)(=O)=O)c1nc(NCc2ccc(F)cc2)nc2ccc(-c3ccc(F)cc3)nc12,-,replicon,<0.1 µM
CC1CCC(C(=O)N(c2cc(-c3ccc(NC(=O)c4csc(N)n4)cc3)sc2C(=O)O)C(C)C)CC1,1b,replicon,<0.5 µM
CCCCCOc1ccc(N(C(=O)NCC)c2nc(-c3cccnc3)cs2)cc1C(F)(F)F,-,-,<1 µM
NC(=O)c1ccc(-c2ccc3nc(NCc4ccc(S(N)(=O)=O)cc4)nc(NCC(F)(F)F)c3n2)cc1,-,replicon,<0.1 µM
Cc1oncc1C(=O)Nc1ccc(-c2cc(N(C(=O)C3CCC(C)CC3)C(C)C)c(C(=O)O)s2)cc1,1a,replicon,>0.5 µM
CS(=O)(=O)NC(=O)c1c(-c2ccc[nH]c2=O)c2c3ccoc3ccc2n1Cc1ccccc1F,-,replicon,>1.5 µM
CN(C)CC(=O)N(c1ccc(OCCCCc2cccs2)c(C(F)(F)F)c1)c1nc(-c2cccnc2)c(F)s1,-,-,<1 µM
CC1(C)CC(=O)C2=C(C1)Nc1c(O)cccc1NC2c1ccc(C#N)cc1Cl,1b,luciferase / reporter gene / replicon,28.19 µM
NCc1ccc(Cn2c(C(=O)O)c(-c3ccc[nH]c3=O)c3c4occc4c(F)cc32)cc1,-,replicon,<0.5 µM
Cc1[nH]ncc1C(=O)Nc1ccc(-c2cc(N(C(=O)C3CCC(C)CC3)C(C)C)c(C(=O)O)s2)cc1,1a,replicon,>0.5 µM
CN1CCN(c2cc3c(cc2F)c(=O)c(-c2noc(Cc4cccnc4)n2)cn3Cc2ccc(Cl)cc2)CC1,1b,replicon,<2 µM
CC1(C)CC(=O)C2=C(C1)Nc1c(O)cccc1N(C(=O)CC#N)[C@H]2c1ccc(OCc2ccccc2)cc1Cl,1b,luciferase / reporter gene / replicon,0.75 µM
NS(=O)(=O)c1ccc(CNc2nc(NC3CC3)c3nc(-c4ccc(NC(=O)C5(O)CC5)cc4)ccc3n2)cc1,-,replicon,<0.1 µM
Cc1cccc(Cn2c(C(=O)NS(=O)(=O)C3CC3)c(-c3ccc[nH]c3=O)c3c4occc4c(F)cc32)c1F,-,replicon,<0.5 µM
CC1CCC(C(=O)N(c2cc(-c3ccc(NC(=O)c4ccc(F)cc4)s3)sc2C(=O)O)C(C)C)CC1,1a,replicon,>0.5 µM
O=C(O)c1c(-c2ccc[nH]c2=O)c2c3occc3c(F)cc2n1Cc1cc(=O)[nH]cc1Br,-,replicon,<0.5 µM
CC(C)Nc1nc(Nc2ccccc2)nc2ccc(-c3ccc(F)cc3)nc12,-,replicon,0.25–2 µM
CC1(C)CC(=O)C2=C(C1)Nc1c(O)cccc1N(C(=O)c1ncccn1)[C@H]2c1ccc(OCc2ccccc2)cc1F,1b,luciferase / reporter gene / replicon,0.27 µM
CC(C)(c1ccccc1)c1nc(-c2cn(Cc3ccc(C(F)(F)F)cc3)c3cc(N4CCNC(=O)C4)c(F)cc3c2=O)no1,1b,replicon,<10 µM
CC(C)S(=O)(=O)NC(=O)c1c(-c2ccc[nH]c2=O)c2c3occc3ccc2n1Cc1cc(F)ccc1F,-,replicon,<0.5 µM
CN1CCN(c2cc3c(cc2F)c(=O)c(-c2noc(Cc4ccc(F)cc4)n2)cn3Cc2ccc(C(F)(F)F)cc2)CC1,1b,replicon,<0.5 µM
CCCCCCCCCc1ccc(N(C(=O)OCOC(=O)C(N)C(C)C)c2nc(-c3cccnc3)c(F)s2)cc1C(F)(F)F,-,-,<1 µM
CC1(C)CC(=O)C2=C(C1)Nc1c(O)cccc1N(C(=O)c1ccc(C#N)cn1)[C@H]2c1ccc(OCc2ccccc2)cc1F,1b,luciferase / reporter gene / replicon,31.37 µM
CC1CCC(C(=O)N(CC(F)F)c2cc(-c3ccc(NC(=O)c4cscn4)cc3)sc2C(=O)O)CC1,1b,replicon,<0.5 µM
CCCCCOc1ccc(N(C(=O)C2CC2)c2nc(-c3cccnc3)cs2)cc1F,-,-,<1 µM

The last 3 rows once more:

smiles,strain,read by,result
CC1(C)CC(=O)C2=C(C1)Nc1c(O)cccc1N(C(=O)c1ccc(C#N)cn1)[C@H]2c1ccc(OCc2ccccc2)cc1F,1b,luciferase / reporter gene / replicon,31.37 µM
CC1CCC(C(=O)N(CC(F)F)c2cc(-c3ccc(NC(=O)c4cscn4)cc3)sc2C(=O)O)CC1,1b,replicon,<0.5 µM
CCCCCOc1ccc(N(C(=O)C2CC2)c2nc(-c3cccnc3)cs2)cc1F,-,-,<1 µM

Lines come from different laboratories, so protocols vary. a–b is a range or a potency band. ECn: concentration that inhibits the pathogen or its effect by n%.